Values quoted from earlier work in patent US20060271062A1 (priority 2005, published 2006).

Tested on: lens epithelial cell
Conditions: rabbit eyes; cited from earlier work

Substance: salmosin
- Lens epithelial cell proliferation and migration: inhibit lens epithelial cell proliferation and migration
